Pooled drug test results. Numbers come from NIAID ChemDB, via PubChem.

Shared fields: growth or infection tests; species: Reovirus; strain: TYPE 1; cells: VERO; method: cytopathic effect; measure: EC50

ECn: concentration that inhibits the pathogen or its effect by n%.

SMILES,value
Nc1ncnc2c1ncn2[C@H]1C[C@@H](CO)[C@H](O)[C@@H]1O,>400 µg/mL
NC(=O)CSc1ncnc2c1cnn2COCC(O)CO,>400 µg/mL
Cc1nc(C(C)C)c2[nH]c(=S)[nH]c(=O)n12,>200 µg/mL
N#CC1=CSc2nnc(-c3cn(-c4ccccc4)nc3-c3ccccc3)n2N=C1N,>16 µg/mL
CC=NC(=N)c1nc(-c2cccc(OC)c2)n(Cc2ccccc2)n1,>10 µg/mL
O=c1[nH]n2c(-c3cn(-c4ccccc4)nc3-c3ccccc3)nnc2sc1=O,>80 µg/mL
CC=NC(=N)c1nc(-c2ccccc2)n(C/C=C/c2ccccc2)n1,>10 µg/mL
c1ccc(C2=Nn3c(nnc3-c3cn(-c4ccccc4)nc3-c3ccccc3)SC2)cc1,>16 µg/mL
CC=NC(=N)c1nc(-c2ccc(C)cc2)n(C/C=C/c2ccccc2)n1,>10 µg/mL
Cc1nn2c(-c3cn(-c4ccccc4)nc3-c3ccccc3)nnc2s1,>3.2 µg/mL
CC(=O)Nc1nc2c(CC(O)CO)ncn2c(=O)[nH]1,>200 µg/mL
CC=NC(=N)c1nc(-c2cccc(OC)c2)n(COCCO)n1,70 µg/mL
CC1=Nn2c(nnc2-c2cn(-c3ccccc3)nc2-c2ccccc2)SC1,>16 µg/mL
CC=NC(=N)c1nc(-c2ccccc2)n(Cc2ccccc2)n1,>4 µg/mL
CCC(Sc1ncnc2c1cnn2COCCO)C(N)=O,>400 µg/mL
Nc1nc(Cl)c2ncn([C@H]3CO[C@@H](CO)C3)c2n1,>400 µg/mL
Nc1ncnc2c1ncn2[C@@H]1C[C@H](CO)[C@@H](O)[C@H]1O,2 µg/mL
NC(=O)CSc1ncnc2c1cnn2CCCCO,>400 µg/mL
CC=NC(=N)c1nc(-c2ccc(C)cc2)n(COCCO)n1,>100 µg/mL
Nc1nc2c(ccn2[C@H]2CO[C@@H](CO)C2)c(=O)[nH]1,>400 µg/mL
C=C(N=CC)c1nc(-c2cccc(OC)c2)n(C2O[C@H](CO)[C@@H](O)[C@H](O)[C@H]2O)n1,>200 µg/mL
C=CCc1nc(C)n2c(=O)[nH]c(=S)[nH]c12,>200 µg/mL

The first 3 rows once more:

SMILES | value
Nc1ncnc2c1ncn2[C@H]1C[C@@H](CO)[C@H](O)[C@@H]1O | >400 µg/mL
NC(=O)CSc1ncnc2c1cnn2COCC(O)CO | >400 µg/mL
Cc1nc(C(C)C)c2[nH]c(=S)[nH]c(=O)n12 | >200 µg/mL

Conditions beyond the fields shown may differ between rows.